# PubChem BioAssay AID1259414, Drosophila RNAi Screening Center, 2018
# Aim: 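Fly genes that alter Wolbachia amount inside host cells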 (primary screen)
# Cell system: Drosophila JW18 cells infected with Wolbachia
# Knock-down reagent: long dsRNA against Drosophila genes, 0.25 µg dsRNA per well of a 384-well plate
# Timing: 5 days
# Conditions: cells persistently infected with Wolbachia before knock-down; no added drug
# Measured: 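Imaged fluorescence in situ signal for Wolbachia 23S rRNA per DAPI-counted host cell, given as a robust z-score within each plate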
# Direction: Wolbachia per cell robust z: higher = more Wolbachia per host cell than the plate typical
# Active means: 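Active if absolute robust z reaches 1.5 in two or more of three replicates, leaving out multi- or no-target dsRNAs, genes unexpressed in JW18 and A1 wells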
# The deposit covers about 24,000 reagents; below is a random part of those with a known target gene and a result. Over the whole deposit, about 1,210 (5%) were called active. 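Inactive calls also include excluded dsRNAs with several or no targets, genes unexpressed in JW18, and well A1, regardless of score.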 Unmarked entries are inactive. A plus sign joins genes that one reagent is predicted to hit.
target,dsRNA,"Wolbachia per cell robust z, rep 1","Wolbachia per cell robust z, rep 2","Wolbachia per cell robust z, rep 3"
CG11583,DRSC08202,-5.74,1.96,0.741
CG11583,DRSC26394,-1.28,0.557,0.532
CG13193,DRSC06318,-1.51,0.545,-0.351
Mer,DRSC20259,-5.57,-0.0658,0.13
Oatp33Ea,DRSC02859,-3.49,0.936,1.13
Oatp33Ea,DRSC26461,-2.6,-0.587,-0.627
Vps26,DRSC18555,0.726,-0.521,0.456
Vps26,DRSC23556,2.5,-1.02,0.578
Ir94a,DRSC13538,0.0576,0.749,0.455
Ir94a,DRSC28031,-0.798,0.281,-1.38
Ravus,DRSC15126,0.752,0.849,-1.46
CG31233,DRSC15888,-2.19,0.0123,-1.84
Mps1,DRSC16273,-0.0745,0.865,1.59
CG15414,DRSC00429,-0.192,-1.02,-0.329
CG15414,DRSC22353,-0.892,0.862,0.537
CG15414,DRSC28498,0.419,-1.5,0.86
CG13114,DRSC02212,-1.14,-0.38,-4
geminin,DRSC04984,2.45 (active),-3.07,3.33
geminin,DRSC29794,3.56 (active),3.22,4.5
yki,DRSC04437,0.931,0.595,1.24
yki,DRSC28304,0.622,-0.797,-0.518
yki,DRSC41265,0.0507,0.103,-2.56
CG33702,DRSC38848,-1.89,-0.357,0.663
CG11068,DRSC19369,0.905,0.44,1.21
CG17776,DRSC18136,-1.74 (active),-1.8,0.791
CG17776,DRSC27477,1.03,-1.21,-0.995
foxo,DRSC13017,1.13,1.27,1.24
foxo,DRSC15463,1.02,1.38,1.01
foxo,DRSC40808,0.858,0.595,-0.484
CG4409,DRSC06869,0.544,-0.58,1.02
CG4409,DRSC28040,-0.213,-2.02,-2.07
otk2,DRSC07303,0.0432,-0.0457,0.201
Or42a,DRSC04912,0.327,-2.22,-0.505
mld,DRSC13681,-0.651,-0.000127,0.725
mld,DRSC14622,0.18,-0.64,-0.599
mld,DRSC23427,0.276,-3.32,-0.71
CG6685,DRSC10695,0.624,-0.376,-0.0136
CG34236,DRSC38647,-2.23,-1.43,0.122
sktl,DRSC04715,-0.501,0.118,1.15
snRNA:U11,DRSC36526,0.827,-0.251,-0.493
HP6,DRSC00471,0.612,0.631,0.21
lncRNA:CR41443,DRSC38747,0.827,1.58,1.83
mts,DRSC03574,1.31,2.12,1.22
CG32817 + CR18166 + CG3176,DRSC18288,-0.802,-0.593,-0.261
CG33061,DRSC09938,-0.417,-0.732,-0.25
CG33061,DRSC22897,-1.04,-2.62,-3.68
CG10395,DRSC04840,0.441,0.324,0.0285
CG10395,DRSC26811,0.269,0.323,0.798
pre-mod(mdg4)-V,DRSC41421,0.134,0.445,0.78
CG11843,DRSC14401,-0.456,-0.807,-0.92
bai,DRSC14388,1.49,-0.0467,1.23
nudE,DRSC09000,0.106,-0.499,-5.06
nudE,DRSC10962,-0.348,-1.59,-0.938
nudE,DRSC30057,-0.585,0.832,0.137
gprs,DRSC06761,-0.48,-0.509,-0.346
CG15219,DRSC03715,0.113,0.0658,0.271
CG5810,DRSC15880,0.223,-0.988,0.563
CG5810,DRSC21921,-0.986,-0.609,-1.06
CG7634,DRSC11843,-3.77,0.833,-0.537
Mid1,DRSC04231,0.371,-1.16,-0.206
Mid1,DRSC04308,0.0839,-1.47,-0.54
Mid1,DRSC22773,0.755,-0.79,-0.613
Mid1,DRSC22803,-0.361,-0.056,-0.253
Mid1,DRSC25509,-0.84,0.661,-0.334
Mid1,DRSC28634,1.25,1.4,0.0859
CG15734,DRSC19701,0.46,-2.95,0.356
Tsp42Eg,DRSC06112,-0.576,0.558,-0.262
CG6178,DRSC15984,0.477,-0.231,0.421
CG8745,DRSC11033,-0.11,-5.7,0.388
CG8745,DRSC11034,0.0895,-0.236,-2.64
CG8745,DRSC22741,0.258,0.765,-0.314
CG15450,DRSC20522,0.0556,0.364,-2.27
mew,DRSC18971,-0.813,-0.127,-1.97
mew,DRSC20352,-1,1.22,0.299
atlas,DRSC04183,-0.936,-0.404,-0.715
l(1)G0196,DRSC20591,-6.38 (active),-1.75,-7.22
l(1)G0196,DRSC20629,-2.25,0.484,-0.138
Obp83cd,DRSC12267,0.354,0.117,0.37
CG7115,DRSC02000,-1.25,0.463,0.265
CG7115,DRSC29878,1.22,0.372,0.609
CG12861,DRSC06201,0.559,0.275,0.439
CG12861,DRSC21960,-1.6,-2.28,-0.432
CG12861,DRSC24847,0.433,-0.893,0.385
Spase25,DRSC19776,-0.0895,0.585,-1.5
CG10589,DRSC11629,-0.21,0.868,0.774
dan,DRSC14406,-0.898,-0.215,1.56
dan,DRSC29653,0.818,1.42,0.655

Records listed above with an active call, once more:
target,dsRNA,"Wolbachia per cell robust z, rep 1","Wolbachia per cell robust z, rep 2","Wolbachia per cell robust z, rep 3"
geminin,DRSC04984,2.45 (active),-3.07,3.33
geminin,DRSC29794,3.56 (active),3.22,4.5
CG17776,DRSC18136,-1.74 (active),-1.8,0.791
l(1)G0196,DRSC20591,-6.38 (active),-1.75,-7.22
